Pooled drug test results. Numbers come from NIAID ChemDB, via PubChem.

Shared fields: growth or infection tests; agent: HIV-2; method: cytopathic effect; measure: EC50

Conditions beyond the fields shown may differ between rows. ECn: concentration that inhibits the pathogen or its effect by n%. a–b is a range or a potency band.

O=C1c2ccccc2N(Cc2ccccc2)S(=O)(=O)N1COCc1ccccc1 ; cell line: MT-4 ; strain or isolate: ROD ; value: >10 µM
N#Cc1ccc(Nc2nccc(C(Cl)c3ccc(Br)cc3)n2)cc1 ; cell line: MT-4 ; strain or isolate: ROD ; value: 32.5 µM
Nc1ncc2ncn(C[C@H](CF)OCP(=O)(O)O)c2n1 ; cell line: MT-4 ; strain or isolate: LAV-2 ; value: >300 µM
CSc1nsc(-c2ccccc2)c1C#N ; cell line: MT-4 ; strain or isolate: ROD ; value: >125 µg/mL
CC(C)(C)[Si](C)(C)OC[C@H]1O[C@@H](n2ccc(N)nc2=O)[C@H](O[Si](C)(C)C(C)(C)C)C12OS(=O)(=O)C=C2N ; cell line: MT-4 ; value: >350 µM
Cc1cc(C(Cl)c2ccc(C(C)(C)C)cc2)nc(Nc2ccc(C#N)cc2)n1 ; cell line: MT-4 ; strain or isolate: ROD ; value: 31.9 µM
C#CCOCN1c2ccccc2C(=O)N(Cc2ccccc2)S1(=O)=O ; cell line: MT-4 ; strain or isolate: ROD ; value: >10 µM
C#CCn1cc(Cl)c(=O)[nH]c1=O ; cell line: MT-4 ; strain or isolate: ROD ; value: >100 µg/mL
Cc1cn([C@@H]2OC(O[Si](C)(C)C(C)(C)C)C3(OS(=O)(=O)C=C3NCCC(=O)OCc3ccccc3)C2O[Si](C)(C)C(C)(C)C)c(=O)n(C)c1=O ; cell line: MT-4 ; strain or isolate: ROD ; value: >250 µM
CNc1nc(=O)n([C@@H]2O[C@H](CO[Si](C)(C)C(C)(C)C)C3(OS(=O)(=O)C=C3N)[C@H]2O[Si](C)(C)C(C)(C)C)cc1C ; cell line: MT-4 ; value: >33 µM
COCCOCCOCCOC(=O)C1(C(=O)OCCOCCOCCOC)C2c3cc4c5c6c3-c3c(cc7c8c3C63CN(CCOCCOCCN)CC36c3c-5c(cc5ccc9cc(c-8c6c9c35)C7)C4)C21 ; cell line: CEM ; strain or isolate: ROD ; value: >4 µM
CC(=O)OCCOCn1cc(Cn2cnc3c(N)ncnc32)nn1 ; cell line: MT-4 ; strain or isolate: ROD ; value: >100 µg/mL
Cc1ccc(C)c(CSc2c(Cl)ccc[n+]2[O-])c1 ; cell line: CEM ; strain or isolate: ROD ; value: >20 µg/mL
O=C1c2ccccc2N(Cc2ccccc2)S(=O)(=O)N1Cc1ccccc1Cl ; cell line: MT-4 ; strain or isolate: ROD ; value: 4–11 µM
Nc1ncnc2c1ncn2Cc1cn(COCCO)nn1 ; cell line: MT-4 ; strain or isolate: ROD ; value: >100 µg/mL
CCOS(=O)c1nsc(-c2ccc(OCc3ccccc3)cc2)c1C#N ; cell line: MT-4 ; strain or isolate: ROD ; value: >125 µg/mL
Cc1cn([C@H]2C=C[C@@H](CO)O2)c(=O)[nH]c1=O ; cell line: CEM ; value: 0.77 µM
Cc1ccc(C)c(CS(=O)(=O)c2cccc[n+]2[O-])c1 ; cell line: CEM ; strain or isolate: ROD ; value: 10 µg/mL
O=C1c2ccccc2N(COCc2ccccc2)S(=O)(=O)N1COCc1ccccc1 ; cell line: MT-4 ; strain or isolate: ROD ; value: >8 µM
Nc1ncnc2c1ncn2C[C@H](CO)OCP(=O)(O)O ; cell line: MT-4 ; strain or isolate: LAV-2 ; value: >330 µM
CC1(C)[C@@H](CCO)C[C@H]1n1nnc2c(N)nc(N)nc21 ; cell line: CEM ; value: >20 µg/mL
Cc1cn([C@@H]2O[C@H](C(COC(=O)c3ccccc3)OC(=O)c3ccccc3)C3(OS(=O)(=O)C=C3N)[C@H]2O[Si](C)(C)C(C)(C)C)c(=O)[nH]c1=O ; cell line: MT-4 ; strain or isolate: ROD ; value: >5.6 µM
Cc1ccc(C(Br)c2ccnc(Nc3ccc(C#N)cc3)n2)cc1 ; cell line: MT-4 ; strain or isolate: ROD ; value: 31.5 µM
N#Cc1c(-c2ccccc2)s[nH]c1=S ; cell line: MT-4 ; strain or isolate: ROD ; value: 9.7 µg/mL
N#Cc1ccc(Nc2nccc(C(Br)c3ccccc3)n2)cc1 ; cell line: MT-4 ; strain or isolate: ROD ; value: 69 µM
Nc1ncc2ncn(C[C@@H](CF)OCP(=O)(O)O)c2n1 ; cell line: MT-4 ; strain or isolate: LAV-2 ; value: >300 µM
O=C1c2ccccc2N(Cc2ccccc2)S(=O)(=O)N1Cc1ccccc1 ; cell line: MT-4 ; strain or isolate: ROD ; value: ≥40 µM
Cc1cn([C@@H]2O[C@H](C3CO[Si](C(C)C)(C(C)C)O[Si](C(C)C)(C(C)C)O3)C3(OS(=O)(=O)C=C3N)[C@H]2O[Si](C)(C)C(C)(C)C)c(=O)[nH]c1=O ; cell line: MT-4 ; strain or isolate: ROD ; value: >26.7 µM
CC1(C)[C@@H](CCO)C[C@H]1n1nnc2c(=O)[nH]c(N)nc21 ; cell line: CEM ; value: >100 µg/mL
CC(C)c1nc(CN(C)C(=O)N[C@H](C(=O)N[C@@H](Cc2ccccc2)C[C@H](O)[C@H](Cc2ccccc2)NC(=O)OCc2cncs2)C(C)C)cs1 ; cell line: MT-4 ; strain or isolate: ROD ; value: 0.1 µg/mL
CC1(C)[C@@H](CCO)C[C@H]1n1cnc2c(=O)[nH]c(N)nc21 ; cell line: MT-4 ; value: >250 µg/mL
O=C1c2ccccc2N(Cc2ccc(Cl)c(Cl)c2)S(=O)(=O)N1Cc1ccccc1 ; cell line: MT-4 ; strain or isolate: ROD ; value: ≥10 µM
C[N+]1(C)CC2c3cc4c5c6c3-c3c(cc7c8c3C63C[N+](C)(C)CC36C3=C5C(C4)Cc4ccc5cc(c-8c6c5c43)C7)C2C1 ; cell line: CEM ; strain or isolate: ROD ; value: >25 µM
C#CCn1cnc2c(=O)[nH]c(NC(C)=O)nc21 ; cell line: MT-4 ; strain or isolate: ROD ; value: >100 µg/mL
CCOC(=O)Sc1nsc(-c2ccccc2)c1C#N ; cell line: MT-4 ; strain or isolate: ROD ; value: 13.4 µg/mL
Cc1ccc(C)c(C(Cl)S(=O)(=O)c2cc(C)cc[n+]2[O-])c1 ; cell line: CEM ; strain or isolate: ROD ; value: >4 µg/mL
O=C1c2ccccc2N(Cc2ccc(Cl)cc2)S(=O)(=O)N1Cc1ccccc1 ; cell line: MT-4 ; strain or isolate: ROD ; value: >50 µM

The last 4 rows once more:

compound | cell line | strain or isolate | value
C#CCn1cnc2c(=O)[nH]c(NC(C)=O)nc21 | MT-4 | ROD | >100 µg/mL
CCOC(=O)Sc1nsc(-c2ccccc2)c1C#N | MT-4 | ROD | 13.4 µg/mL
Cc1ccc(C)c(C(Cl)S(=O)(=O)c2cc(C)cc[n+]2[O-])c1 | CEM | ROD | >4 µg/mL
O=C1c2ccccc2N(Cc2ccc(Cl)cc2)S(=O)(=O)N1Cc1ccccc1 | MT-4 | ROD | >50 µM